Experimental data published in PMC8092523 (Antimicrobial Agents and Chemotherapy, 2021).

Test system: mc^27000:Δc− strain with pYL60 or pYL3

## CN[C@@H]1[C@H](O)[C@H](NC)[C@H]2O[C@]3(O)[C@H](O[C@@H]2[C@H]1O)O[C@H](C)C[C@H]3NC(=O)Cc1ccc(Cl)cn1 [Spa]
  MIC50 higher for pYL60 strain than for empty vector (pYL3) strain: ~4 fold
